# Source: publication PMC11904993, “Humanized Candida and NanoBiT Assays Expedite Discovery of Bdf1 Bromodomain Inhibitors With Antifungal Potential” (Advanced Science, 2025)
# By UniProt entry, the sequences of proteins in these tests, tags left out. Residues count along the entry.
# UniProt Q6FWV7, 100-228 limits assumed: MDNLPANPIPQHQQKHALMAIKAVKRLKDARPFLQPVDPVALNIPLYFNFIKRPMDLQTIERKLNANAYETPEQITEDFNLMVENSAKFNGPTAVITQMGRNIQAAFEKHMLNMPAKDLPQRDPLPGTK
# UniProt Q6FWV7, 269-391 limits assumed: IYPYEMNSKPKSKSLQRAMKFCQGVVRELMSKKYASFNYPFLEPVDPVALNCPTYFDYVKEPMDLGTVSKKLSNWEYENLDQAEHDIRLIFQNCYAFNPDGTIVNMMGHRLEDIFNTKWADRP
# Where “and” joins values, the source holds several entries; their conditions need not be identical. Identical values can stand only once.
# Biological target: CgBdf1 BD1 (Candida glabrata, UniProt Q6FWV7)
# Assay: HTRF assay, inhibition of H4ac4 peptide binding
# Set-up: species or system C. glabrata
# Conditions: CgBD1; individual experiments Exp1-3; Table S4
row,Compound,IC50
1,COC(=O)c1ccc(NC(=O)C2CC(=O)N(c3ccc4c(c3)CCN4C(C)=O)C2)cc1 (centres unmarked),0.11 µM and 0.07 µM and 0.13 µM
2,COc1cccc(NC(=O)Cn2ccc3ccc(-c4nnc(C)o4)cc32)c1,4.22 µM and 0.93 µM and 4.1 µM
3,CCCN(CC1CC1)C(=O)C1C(c2cc(OC)c(OC)c(OC)c2)c2cc3c(cc2C(O)C1CO)OCO3 (centres unmarked),0.36 µM and 0.22 µM and 0.56 µM

# Same assay, conditions: Fig 1D/2A original data; single experiments Exp1-3
row,Compound,pIC50 CgBD1
1,COC(=O)c1ccc(NC(=O)C2CC(=O)N(c3ccc4c(c3)CCN4C(C)=O)C2)cc1 (centres unmarked),6.943 and 7.167 and 6.872

# Same assay, conditions: read-out: IC50 CgBD1; Table S4; means ± SD, n=3
row,Compound,IC50
1,COC(=O)c1ccc(NC(=O)C2CC(=O)N(c3ccc4c(c3)CCN4C(C)=O)C2)cc1 (centres unmarked),0.1 µM
2,COc1cccc(NC(=O)Cn2ccc3ccc(-c4nnc(C)o4)cc32)c1,3.08 µM
3,CCCN(CC1CC1)C(=O)C1C(c2cc(OC)c(OC)c(OC)c2)c2cc3c(cc2C(O)C1CO)OCO3 (centres unmarked),0.38 µM

# Same assay, conditions: read-out: IC50 CgBdf1 BD1; Table S3; estimate, preliminary single-replicate HTRF assay
row,Compound,IC50
1,COc1cccc(NC(=O)Cn2ccc3ccc(-c4nnc(C)o4)cc32)c1,4.2 µM

# Biological target: CgBdf1 BD2 (Candida glabrata, UniProt Q6FWV7)
# Assay: not given
# Conditions: CgBD2; individual experiments Exp1-3; Table S4
row,Compound,IC50
1,COC(=O)c1ccc(NC(=O)C2CC(=O)N(c3ccc4c(c3)CCN4C(C)=O)C2)cc1 (centres unmarked),> 20 µM
2,COc1cccc(NC(=O)Cn2ccc3ccc(-c4nnc(C)o4)cc32)c1,> 20 µM
3,CCCN(CC1CC1)C(=O)C1C(c2cc(OC)c(OC)c(OC)c2)c2cc3c(cc2C(O)C1CO)OCO3 (centres unmarked),> 20 µM

# System: CgBdf1 BD1
# Assay: not given
# Conditions: CgBdf1 BD1 WT; normalized peptide array signal
row,Compound,"Normalized (0 to 100%), WT, Average"
1,COC(=O)c1ccc(NC(=O)C2CC(=O)N(c3ccc4c(c3)CCN4C(C)=O)C2)cc1 (centres unmarked),2.19%
2,COc1cccc(NC(=O)Cn2ccc3ccc(-c4nnc(C)o4)cc32)c1,4.62%
3,CCCN(CC1CC1)C(=O)C1C(c2cc(OC)c(OC)c(OC)c2)c2cc3c(cc2C(O)C1CO)OCO3 (centres unmarked),12%

# Same assay, conditions: CgBdf1 BD1 WT; peptide array signal, left replicate
row,Compound,"Raw data, WT, Left"
1,COC(=O)c1ccc(NC(=O)C2CC(=O)N(c3ccc4c(c3)CCN4C(C)=O)C2)cc1 (centres unmarked),0.0189
2,COc1cccc(NC(=O)Cn2ccc3ccc(-c4nnc(C)o4)cc32)c1,0.007876
3,CCCN(CC1CC1)C(=O)C1C(c2cc(OC)c(OC)c(OC)c2)c2cc3c(cc2C(O)C1CO)OCO3 (centres unmarked),0.08412

# Same assay, conditions: CgBdf1 BD1 WT; peptide array signal, right replicate
row,Compound,"Raw data, WT, Rigt"
1,COC(=O)c1ccc(NC(=O)C2CC(=O)N(c3ccc4c(c3)CCN4C(C)=O)C2)cc1 (centres unmarked),0.02489
2,COc1cccc(NC(=O)Cn2ccc3ccc(-c4nnc(C)o4)cc32)c1,0.08444
3,CCCN(CC1CC1)C(=O)C1C(c2cc(OC)c(OC)c(OC)c2)c2cc3c(cc2C(O)C1CO)OCO3 (centres unmarked),0.1582

# Same assay, conditions: CgBdf1 BD1 YF mutant; normalized peptide array signal
row,Compound,"Normalized (0 to 100%), YF mutant, Average"
1,COC(=O)c1ccc(NC(=O)C2CC(=O)N(c3ccc4c(c3)CCN4C(C)=O)C2)cc1 (centres unmarked),0.293%
2,COc1cccc(NC(=O)Cn2ccc3ccc(-c4nnc(C)o4)cc32)c1,0.416%
3,CCCN(CC1CC1)C(=O)C1C(c2cc(OC)c(OC)c(OC)c2)c2cc3c(cc2C(O)C1CO)OCO3 (centres unmarked),0.308%

# Same assay, conditions: CgBdf1 BD1 YF mutant; peptide array signal, left replicate
row,Compound,"Raw data, YF mutant, Left"
1,COC(=O)c1ccc(NC(=O)C2CC(=O)N(c3ccc4c(c3)CCN4C(C)=O)C2)cc1 (centres unmarked),0.003393
2,COc1cccc(NC(=O)Cn2ccc3ccc(-c4nnc(C)o4)cc32)c1,0.003393
3,CCCN(CC1CC1)C(=O)C1C(c2cc(OC)c(OC)c(OC)c2)c2cc3c(cc2C(O)C1CO)OCO3 (centres unmarked),0.003085

# Same assay, conditions: CgBdf1 BD1 YF mutant; peptide array signal, right replicate
row,Compound,"Raw data, YF mutant, Right"
1,COC(=O)c1ccc(NC(=O)C2CC(=O)N(c3ccc4c(c3)CCN4C(C)=O)C2)cc1 (centres unmarked),0.002468
2,COc1cccc(NC(=O)Cn2ccc3ccc(-c4nnc(C)o4)cc32)c1,0.004935
3,CCCN(CC1CC1)C(=O)C1C(c2cc(OC)c(OC)c(OC)c2)c2cc3c(cc2C(O)C1CO)OCO3 (centres unmarked),0.003085

# System: CgBdf1 BD2
# Assay: not given
# Conditions: CgBdf1 BD2 WT; normalized peptide array signal
row,Compound,"Normalized (0 to 100%), WT, Average"
1,COC(=O)c1ccc(NC(=O)C2CC(=O)N(c3ccc4c(c3)CCN4C(C)=O)C2)cc1 (centres unmarked),1.15%
2,COc1cccc(NC(=O)Cn2ccc3ccc(-c4nnc(C)o4)cc32)c1,0.671%
3,CCCN(CC1CC1)C(=O)C1C(c2cc(OC)c(OC)c(OC)c2)c2cc3c(cc2C(O)C1CO)OCO3 (centres unmarked),4%

# Same assay, conditions: CgBdf1 BD2 WT; peptide array signal, left replicate
row,Compound,"Raw data, WT, Left"
1,COC(=O)c1ccc(NC(=O)C2CC(=O)N(c3ccc4c(c3)CCN4C(C)=O)C2)cc1 (centres unmarked),0.009046
2,COc1cccc(NC(=O)Cn2ccc3ccc(-c4nnc(C)o4)cc32)c1,0.004991
3,CCCN(CC1CC1)C(=O)C1C(c2cc(OC)c(OC)c(OC)c2)c2cc3c(cc2C(O)C1CO)OCO3 (centres unmarked),0.02464

# Same assay, conditions: CgBdf1 BD2 WT; peptide array signal, right replicate
row,Compound,"Raw data, WT, Rigt"
1,COC(=O)c1ccc(NC(=O)C2CC(=O)N(c3ccc4c(c3)CCN4C(C)=O)C2)cc1 (centres unmarked),0.01404
2,COc1cccc(NC(=O)Cn2ccc3ccc(-c4nnc(C)o4)cc32)c1,0.008422
3,CCCN(CC1CC1)C(=O)C1C(c2cc(OC)c(OC)c(OC)c2)c2cc3c(cc2C(O)C1CO)OCO3 (centres unmarked),0.05864

# Same assay, conditions: CgBdf1 BD2 YF mutant; normalized peptide array signal
row,Compound,"Normalized (0 to 100%), YF mutant, Average"
1,COC(=O)c1ccc(NC(=O)C2CC(=O)N(c3ccc4c(c3)CCN4C(C)=O)C2)cc1 (centres unmarked),0.859%
2,COc1cccc(NC(=O)Cn2ccc3ccc(-c4nnc(C)o4)cc32)c1,0.429%
3,CCCN(CC1CC1)C(=O)C1C(c2cc(OC)c(OC)c(OC)c2)c2cc3c(cc2C(O)C1CO)OCO3 (centres unmarked),0.506%

# Same assay, conditions: CgBdf1 BD2 YF mutant; peptide array signal, left replicate
row,Compound,"Raw data, YF mutant, Left"
1,COC(=O)c1ccc(NC(=O)C2CC(=O)N(c3ccc4c(c3)CCN4C(C)=O)C2)cc1 (centres unmarked),0.01319
2,COc1cccc(NC(=O)Cn2ccc3ccc(-c4nnc(C)o4)cc32)c1,0.004294
3,CCCN(CC1CC1)C(=O)C1C(c2cc(OC)c(OC)c(OC)c2)c2cc3c(cc2C(O)C1CO)OCO3 (centres unmarked),0.007055

# Same assay, conditions: CgBdf1 BD2 YF mutant; peptide array signal, right replicate
row,Compound,"Raw data, YF mutant, Right"
1,COC(=O)c1ccc(NC(=O)C2CC(=O)N(c3ccc4c(c3)CCN4C(C)=O)C2)cc1 (centres unmarked),0.003988
2,COc1cccc(NC(=O)Cn2ccc3ccc(-c4nnc(C)o4)cc32)c1,0.004294
3,CCCN(CC1CC1)C(=O)C1C(c2cc(OC)c(OC)c(OC)c2)c2cc3c(cc2C(O)C1CO)OCO3 (centres unmarked),0.003067

# System: C. glabrata strains expressing WT and mutant Bdf1
# Assay: Growth inhibition in liquid media, C. glabrata lab strains
# Conditions: WT BDF1 strain; Exp 1-3; Figure S9A
row,Compound,OD at 600 nm
1,COC(=O)c1ccc(NC(=O)C2CC(=O)N(c3ccc4c(c3)CCN4C(C)=O)C2)cc1 (centres unmarked),0.5050 and 0.5110 and 0.4890
2,COc1cccc(NC(=O)Cn2ccc3ccc(-c4nnc(C)o4)cc32)c1,0.5484 and 0.5614 and 0.5754
3,CCCN(CC1CC1)C(=O)C1C(c2cc(OC)c(OC)c(OC)c2)c2cc3c(cc2C(O)C1CO)OCO3 (centres unmarked),0.5473 and 0.5133 and 0.5203

# Same assay, conditions: bdf1-bd1Δ strain; Exp 1-3; Figure S9A
row,Compound,OD at 600 nm
1,COC(=O)c1ccc(NC(=O)C2CC(=O)N(c3ccc4c(c3)CCN4C(C)=O)C2)cc1 (centres unmarked),0.2830 and 0.2710 and 0.2820
2,COc1cccc(NC(=O)Cn2ccc3ccc(-c4nnc(C)o4)cc32)c1,0.2991 and 0.3141 and 0.2971
3,CCCN(CC1CC1)C(=O)C1C(c2cc(OC)c(OC)c(OC)c2)c2cc3c(cc2C(O)C1CO)OCO3 (centres unmarked),0.2310 and 0.2520 and 0.2400

# Same assay, conditions: bdf1-bd2Δ strain; Exp 1-3; Figure S9A
row,Compound,OD at 600 nm
1,COC(=O)c1ccc(NC(=O)C2CC(=O)N(c3ccc4c(c3)CCN4C(C)=O)C2)cc1 (centres unmarked),0.1760 and 0.1750 and 0.1620
2,COc1cccc(NC(=O)Cn2ccc3ccc(-c4nnc(C)o4)cc32)c1,0.1001 and 0.0951 and 0.1091
3,CCCN(CC1CC1)C(=O)C1C(c2cc(OC)c(OC)c(OC)c2)c2cc3c(cc2C(O)C1CO)OCO3 (centres unmarked),0.1463 and 0.1553 and 0.1533
